Laboratory results as given in the supplement of paper PMC9262897, “Low-cost anti-mycobacterial drug discovery using engineered E. coli” (Nature Communications, 2022).
± gives the standard deviation of the averaged measurements. The entries are a selection whose mix differs from that of the whole data set.

These compounds were tested on E. coli TESEC Alr+ wild-type control (assay: growth (OD600 after 10 h); higher = more growth (less inhibition)). Details: compound 0.1 mM; raw OD600 reference: median of DMSO wells 0.241, cell-free background 0.041.
Description: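 TESEC Mtb Alr E. coli, or the Alr+ wild-type control, in 384-well plates with Prestwick library compounds at 0.1 mM and 1% DMSO, across arabinose induction levels of 1E3 to 1E7 nM. Growth is read as OD600 after 10 h at 37 °C in triplicate biological replicates.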

How did the growth turn out when `COc1cc(Br)c(C[N+]2(CCOCCC3CCC4CC3C4(C)C)CCOCC2)cc1OC` (stereo unspecified) [Pinaverium bromide] was run?
The growth was 0.03947 ± 0.00038.
